Molecular target: ricin (Ricinus communis, UniProt P02879)
Assay: Crystal structure of the complex of ricin with baicalin (mechanism and target validation)
Conditions: pendant drop method; binding sites Arg189, Thr190, Arg193, Tyr194, Arg235 and Arg258

Compound: O=C(O)[C@H]1O[C@@H](Oc2cc3oc(-c4ccccc4)cc(=O)c3c(O)c2O)[C@H](O)[C@@H](O)[C@@H]1O
- Effect of baicalin on ricin (crystal structure of the complex): induce ricin to form a polymer
